We go through one sequence from paper PMC8326586.

In the series the test system is AbTetR (TetR class G) (Acinetobacter baumannii AYE). In words: EMSA. Particulars: 5 uM AbTetR, 70 ng poly[d(I-C)]; recombinant protein; residues 1-208; protein details: C-terminal His6; probe letters rebuilt from the primers and the genome. In general terms: A gel shift assay detects complexes by their altered migration in electrophoresis.

On to “GCACAAGCTCACGCAGAAGCGTCGGAAGGACGGGCATGATGAGGCCGAGACCCATGGCGTCAAGACCCACGATCAGCAGGGCAATGATGGCAGAGCTGCGCACCTGAAACTCCAGCGCCGCTCAATGGAGCGACTTTATCAACGATAAGGAGATGGACATATAACTTATCGGTGATAAATTGTCAAGCACTGGCGAAGGAACGTGAATGACCAAACTGGACAAGGGCACCGTGATCGCGGCGGCGCTAGAGCTGTTGAACGAGGTTGGCATGGACAGCCTGACGACGCGGAAGCTCGCTGAACGCCTCAAGGTTCAGCA (double strand) [319 bp tetR-tetA(G) fragment]”, for which the binding result is recorded as “binds”.
